In patent US10195189B2, “2-phenethenyltetrahydro isoquinolines useful as anti-HIV compounds” (priority 2014, dated 2019) one finds SI data, which are given here for 15 molecules.

In this series the test system is HIV-1 NL4-3 viral clone expressing Renilla luciferase. It counts as cell-based. The settings on record: ratio of CC50 over EC50. The protocol:
Protocol for MT-2 Spread Assay
The present assay was used to screen candidate antiviral compounds by quantification of virus spread and production over several rounds of infection in vitro. MT-2, a HIV-1 permissive human T-cell line, was seeded in microtiter plates and was simultaneously treated with serially diluted compound and inoculated with a HIV-1 NL4-3 viral clone engineered to express Renilla luciferase in place of Net Following treatment, the culture was incubated for 96 hours. After the incubation, media was collected and used to estimate relative infectivity on the indicator cell line, TZM-bl. Additionally, viral spread was quantified by measuring luciferase activity via a commercially available luciferase substrate. In parallel, MT-2 cells were seeded and inoculated with mock virus in the presence of serially diluted compound. Compound toxicity was quantified 96 hours after treatment with AlamarBlue.
MT-2 (NIH Aids reagent program 237) cells were grown and maintained in an incubator at 37° C. with 5% CO2 using a basal medium of RPMI-1640 supplemented with 10% FBS. Cells were seeded in 100 μl at 2×10^4 cells/well in white walled 96-well microtiter plates. Candidate compounds were 3-fold serially diluted in the appropriate solvent. Solvent without compound was used as a no drug reference. Cells were inoculated at a multiplicity of 0.027 with an HIV-1 NL4-3 virus stock engineered to express Renilla luciferase in place of Net Diluted virus stock was first added to serially diluted compound. Compound and virus were delivered to cells in an equal volume (100 μl) and treated cultures were returned to the incubator for 96 hours. In parallel, plates for cytotoxicity estimates were prepared in the same way except cells were plated in clear walled 96-well microtiter plates and were mock infected.
At 96 hours post infection, 100 μl virus containing culture supernatant was collected from the treated and infected cultures and serially diluted in DMEM supplemented with 10% FBS, 1% sodium pyruvate, and 20 μg/ml DEAE dextran. One day prior, TZM-bl (ATCC PTA-5659) were cultured in basal medium of DMEM supplemented with 10% FBS and 1% sodium pyruvate and seeded at 7.5×10^3 cells/well in black walled 96-well microtiter plates. Diluted virus containing culture supernatant was transferred to TZM-bl cultures and incubated for 48 hours at 37° C. with 5% CO2. Infected TZM-bl cultures were fixed for 5 minutes with a 1% formaldehyde/0.2% gluteraldehyde/PBS solution then washed three times with PBS. Fixed cultures were incubated at 37° C. for 25 minutes with a 200 μg/ml MUG (4-Methylumbelliferyl β-D-[…])/DMEM solution. The reaction was stopped with an equal volume of 1M sodium carbonate and read at 360, 449 nm on fluorescence plate reader (Biotek).
At 96 hours post infection, 100 μl of culture supernatant was removed from the treated and infected cultures and EnduRen live cell substrate (Promega) was added at a final concentration 1.3 μg/ml. Cells were incubated for 1.5 hours at 37° C. with 5% CO2 then read on a luminescence plate reader (Biotek).
For all assays, data was imported into Accelrys Assay Explorer 3.3. In Assay Explorer, % inhibition (antiviral or cytotoxicity) was calculated using the solvent control as a reference by the following equation: 1−(SignalCompound/SignalReference). The % Inhibition and compound concentration data was fitted using the following 4-parameter logistic model (Assay Explorer model 42):
[formula] where X is compound concentration, Y is % inhibition, D is the maximum % Inhibition (constrained to 100%), C is IC50 value or inflection point, B is the hill slope, and A is the minimum % inhibition (constrained to 0%). The IC50 value is reported as the EC50 or CC50 depending on the assay endpoint. EC50 represents the effective concentration at which virus replication is inhibited by 50 percent. CC50 represents the concentration that results in the death of 50 percent of the host cells. […]
For the molecule `COc1cc(C)c(/C=C/C2NCCc3cc(OCc4ccccc4)c(OC)cc32)cc1OCc1ccccc1` (stereo not drawn) [AF, 6-benzyloxy-1-[(E)-2-(5-benzyloxy-4-methoxy-2-methyl-phenyl)vinyl]-7-methoxy-1,2,3,4-tetrahydroisoquinoline], the SI is 48.2.
Regarding `COc1cc2c(cc1OCc1ccccc1)CCNC2/C=C/c1cc(OC)c(OCc2ccccc2)c(OC)c1` (stereo not drawn) [AP, 6-Benzyloxy-1-[(E)-2-(4-benzyloxy-3,5-dimethoxy-phenyl)vinyl]-7-methoxy-1,2,3,4-tetrahydroisoquinoline], the SI is listed as 1.7.
In the case of `COc1cc(OC)c(OC)cc1/C=C/C1NCCc2cc(OCc3ccccc3)c(OC)cc21` (stereo not drawn) [AQ, 6-Benzyloxy-7-methoxy-1-[(E)-2-(2,4,5-trimethoxyphenyl)vinyl]-1,2,3,4-tetrahydroisoquinoline], the SI worked out at 131.1.
Take `COc1ccc(/C=C/C2NCCc3cc(OCc4ccccc4)c(OC)cc32)cc1Br` (stereo not drawn) [AR, 6-Benzyloxy-1-[(E)-2-(3-bromo-4-methoxy-phenyl)vinyl]-7-methoxy-1,2,3,4-tetrahydroisoquinoline]: the SI is 8.2.
With `COc1cc(C(C)(C)C)c(/C=C/C2NCCc3cc(OCc4ccccc4)c(OC)cc32)cc1OCc1ccccc1` (stereo not drawn) [AS, 6-Benzyloxy-1-[(E)-2-(5-benzyloxy-2-tert-butyl-4-methoxy-phenyl)vinyl]-7-methoxy-1,2,3,4-tetrahydroisoquinoline] the figure was 1.3; with `COc1cc(/C=C/C2NCCc3cc(OCc4ccccc4)c(OC)cc32)cc(OC)c1` (stereo not drawn) [AT, 6-Benzyloxy-1-[(E)-2-(3,5-dimethoxyphenyl)vinyl]-7-methoxy-1,2,3,4-tetrahydroisoquinoline], 6.3.
With `COc1cc(/C=C/C2NCCc3cc(OCc4ccccc4)c(OC)cc32)ccn1` (stereo not drawn) [AU, 6-benzyloxy-7-methoxy-1-[(E)-2-(2-methoxy-4-pyridyl)vinyl]-1,2,3,4-tetrahydroisoquinoline] the figure was 2; with `COc1ccc(/C=C/C2NCCc3cc(OCc4ccccc4)c(OC)cc32)c(OC)c1` (stereo not drawn) [AV, 6-Benzyloxy-1-[(E)-2-(2,4-dimethoxyphenyl)vinyl]-7-methoxy-1,2,3,4-tetrahydroisoquinoline], 39.3.
With `COc1cc2c(cc1OCc1ccccc1)CCNC2/C=C/c1ccncc1` (stereo not drawn) [AW, 6-Benzyloxy-7-methoxy-1-[(E)-2-(4-pyridyl)vinyl]-1,2,3,4-tetrahydroisoquinoline] the figure was 3.5; with `COc1ccc(/C=C/C2NCCc3cc(OCc4ccccc4)c(OC)cc32)cn1` (stereo not drawn) [AX, 6-Benzyloxy-7-methoxy-1-[(E)-2-(6-methoxy-3-pyridyl)vinyl]-1,2,3,4-tetrahydroisoquinoline], 3.5; with `COc1cc2c(cc1OCc1ccccc1)CCNC2c1cc(OCc2ccccc2)c(OC)cc1C` (stereo not drawn) [AY, 6-(Benzyloxy)-1-(5-(benzyloxy)-4-methoxy-2-methylphenyl)-7-methoxy-1,2,3,4-tetrahydroisoquinoline], 1.1.
For `COc1cc2c(cc1OCc1ccccc1)CCNC2c1ccccc1CNC(=O)OC(C)(C)C` (stereo not drawn) [AZ, tert-Butyl N-[[2-(6-benzyloxy-7-methoxy-1,2,3,4-tetrahydroisoquinolin-1-yl)phenyl]methyl]carbamate], the SI is on record as 12.3.
With `COc1cc(C)c(/C=C/C2NCCc3cc(OCc4ccccc4)c(OC)cc32)c(C)c1` (stereo not drawn) [BA, 6-Benzyloxy-7-methoxy-1-[(E)-2-(4-methoxy-2,6-dimethyl-phenyl)vinyl]-1,2,3,4-tetrahydroisoquinoline] the figure was 6.7; with `COc1cc2c(cc1OCc1ccccc1)CCNC2/C=C/c1cc2c(cc1C)OCO2` (stereo not drawn) [BB, 6-Benzyloxy-7-methoxy-1-[(E)-2-(6-methyl-1,3-benzodioxol-5-yl)vinyl]-1,2,3,4-tetrahydroisoquinoline], 54.9; with `COc1cc2c(cc1OCc1ccccc1)CCNC2/C=C/c1cc2c(cc1C)OCCO2` (stereo not drawn) [BC, 6-Benzyloxy-7-methoxy-1-[(E)-2-(7-methyl-2,3-dihydro-1,4-benzodioxin-6-yl)vinyl]-1,2,3,4-tetrahydroisoquinoline], 90.6.
